Compound potency records, mixed from different reports. Data source: NIAID ChemDB in PubChem.

Shared fields: growth or infection tests; agent: Candida glabrata; read-out: MIC

Conditions beyond the fields shown may differ between rows. An empty or dashed field is not shown.

structure | read by | setting | strain | result
C[C@@H]1CC(=O)N(c2ccc(F)cc2F)C1=O | broth dilution / turbidity |  | CCC 115-2000 | 62.5 µg/mL
Nc1ncccc1-c1cc(Cc2ccc(COc3ccccn3)cc2)no1 | broth dilution |  | 8655 | 0.03 µg/mL
CCCCCCCC/C=C\CCCCCCCC(=O)N[C@H](C(=O)N1C[C@H](C)C[C@H]1C(=O)N[C@H](C(=O)N[C@@H](CCO)C(=O)N[C@@H](C)C=O)C(C)C)[C@@H](C)O | broth dilution / visual reading |  | ATCC 90030 | 2 µg/mL
CCC(C)n1ncn(-c2ccc(N3CCN(c4ccc(OC[C@H]5CO[C@](Cn6cncn6)(c6ccc(Cl)cc6Cl)O5)cc4)CC3)cc2)c1=O | broth dilution | pH 5 | 40 isolates | >16 µg/mL
C[C@@H](c1ncncc1F)[C@](O)(Cn1cncn1)c1ccc(F)cc1F | broth dilution |  | 8655 | 0.5 µg/mL
CC(C)c1ccc(NS(=O)(=O)c2ccc(CN(C)CC(O)(Cn3cncn3)c3ccc(F)cc3F)cc2)cc1 | resazurin |  | 468 | <0.001 µg/mL
O=C(CCn1ccnc1)c1cccc2ccccc12 | broth dilution |  | RTCC 1040 | 64 µg/mL
C[C@H]1[C@H](O)[C@@H](C)/C=C/C=C/C=C/C=C/C=C/C=C/C=C/[C@H](O[C@@H]2O[C@H](C)[C@@H](O)[C@H](N)[C@@H]2O)C[C@@H]2O[C@](O)(C[C@@H](O)C[C@@H](O)CC[C@H](O)[C@@H](O)C[C@@H](O)CC(=O)O[C@H]1C)C[C@H](O)[C@H]2C(=O)O | absorbance |  | MTCC 3019 | 0.5 µg/mL
CCCc1ccc(NS(=O)(=O)c2ccc(CN(C)CC(O)(Cn3cncn3)c3ccc(F)cc3F)cc2)cc1 | resazurin |  | 468 | 1.6 µg/mL
Cc1ccc(N2C(=O)C[C@@H](C)C2=O)cc1 | broth dilution / turbidity |  | CCC 115-2000 | 62.5 µg/mL
Clc1ccccc1C(c1ccccc1)(c1ccccc1)n1ccnc1 | broth dilution | pH 5 | 40 isolates | 4 µg/mL
O=C1c2ccccc2CC1Cn1ccnc1 | broth dilution |  | RTCC 1040 | >64 µg/mL
CC(C)c1ccc(S(=O)(=O)Nc2ccc(CN(C)CC(O)(Cn3cncn3)c3ccc(F)cc3F)cc2)cc1 | resazurin |  | 468 | 1.9 µg/mL
COC(=O)[C@H]1[C@@H]2C[C@@H](O[C@@H]3O[C@H](C)[C@@H](O)[C@H](N)[C@@H]3O)/C=C/C=C/C=C/C=C/C=C/C=C/C=C/[C@H](C)[C@@H](O)[C@H](C)[C@H](C)OC(=O)C[C@H](O)C[C@H](O)[C@@H](O)CC[C@H](O)C[C@H](O)C[C@](O)(C[C@@H]1O)O2 | broth dilution | pH 7 | 40 isolates | 0.125 µg/mL
CC1CC(=O)N(CCc2ccccc2)C1=O | broth dilution / turbidity |  | CCC 115-2000 | 125 µg/mL
OC(CCn1ccnc1)c1ccc(Br)cc1 | broth dilution |  | RTCC 1040 | 64 µg/mL
CC1CC(=O)N(c2ccc([N+](=O)[O-])cc2)C1=O | broth dilution / turbidity |  | CCC 115-2000 | 125 µg/mL
CC(=O)N1CCN(c2ccc(OC[C@H]3CO[C@](Cn4ccnc4)(c4ccc(Cl)cc4Cl)O3)cc2)CC1 | broth dilution | pH 5 | 40 isolates | 8 µg/mL
CC1C(=O)N(CCCCc2ccccc2)C(=O)C1C | broth dilution / turbidity |  | CCC 115-2000 | 125 µg/mL
CN(Cc1ccc(S(=O)(=O)NC(C)(C)C)cc1)CC(O)(Cn1cncn1)c1ccc(F)cc1F | resazurin |  | 468 | <0.001 µg/mL

2 of the rows above, restated:

structure,read by,setting,strain,result
OC(CCn1ccnc1)c1ccc(Br)cc1,broth dilution,,RTCC 1040,64 µg/mL
O=C1c2ccccc2CC1Cn1ccnc1,broth dilution,,RTCC 1040,>64 µg/mL